# PubChem BioAssay AID1259414, Drosophila RNAi Screening Center – 2018
# Purpose: 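Genome-wide screen for host control of endosymbiont load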 (primary screen)
# Cell system: Drosophila JW18 cells infected with Wolbachia
# Reagent: long dsRNA against Drosophila genes, 0.25 µg dsRNA per well of a 384-well plate
# Duration: 5 days
# Treatment: cells persistently infected with Wolbachia before knock-down; no added drug
# Read-out: 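Imaged fluorescence in situ signal for Wolbachia 23S rRNA per DAPI-counted host cell, given as a robust z-score within each plate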
# Direction: Wolbachia per cell robust z: higher = more Wolbachia per host cell than the plate typical
# Rule for the call: 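Active if absolute robust z reaches 1.5 in two or more of three replicates, leaving out multi- or no-target dsRNAs, genes unexpressed in JW18 and A1 wells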
# The screen tested about 24,000 reagents; shown is a random part of those that have a named target and a result. Of all reagents, about 1,210 (5%) were called active. 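Inactive calls also include excluded dsRNAs with several or no targets, genes unexpressed in JW18, and well A1, regardless of score.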 Reagent sequences are not shown.
predicted target,dsRNA,"Wolbachia per cell robust z, rep 1","Wolbachia per cell robust z, rep 2","Wolbachia per cell robust z, rep 3",activity call
Sirt6 (Sirtuin 6),DRSC16010,-0.553,-4.58,-0.34,inactive
Sirt6 (Sirtuin 6),DRSC29965,0.253,0.547,0.364,inactive
l(2)05287 (lethal (2) 05287),DRSC02151,-2.62,0.673,0.575,inactive
l(2)05287 (lethal (2) 05287),DRSC02152,0.636,0.645,0.89,inactive
l(2)05287 (lethal (2) 05287),DRSC26660,0.684,-0.356,-0.93,inactive
Prosbeta4R2 (Proteasome beta4 subunit-related 2),DRSC00503,0.7,-0.543,0.0651,inactive
Prosbeta4R2 (Proteasome beta4 subunit-related 2),DRSC28235,-0.615,0.654,0.757,inactive
CG7330,DRSC10813,0.33,1.11,-4.47,inactive
CG7330,DRSC10814,-0.175,0.739,-0.747,inactive
Gba1a (Glucocerebrosidase 1a),DRSC21494,-1.47,0.646,0.242,inactive
CG10646,DRSC09764,1.11,0.99,-0.657,inactive
RpL41 (Ribosomal protein L41),DRSC22958,1.16,-0.456,-0.792,inactive
CG31678,DRSC02618,0.505,0.561,0.667,inactive
CG31678,DRSC02619,-0.195,0.26,-0.222,inactive
stmA (stambha A),DRSC07593,0.816,-0.115,-0.965,inactive
stmA (stambha A),DRSC22179,0.499,0.343,-0.0782,inactive
E2f1 (E2F transcription factor 1),DRSC16655,1.78,0.864,2.12,active
E2f1 (E2F transcription factor 1),DRSC29572,-0.041,-0.243,-0.514,inactive
CG11951,DRSC14442,-0.045,-0.383,-0.479,inactive
CG11951,DRSC25645,0.894,-0.0604,-0.465,inactive
"NKAIN (Na,K-ATPase Interacting)",DRSC04531,0.635,-0.821,-1.62,inactive
"NKAIN (Na,K-ATPase Interacting)",DRSC22470,-1.51,0.11,0.268,inactive
"NKAIN (Na,K-ATPase Interacting)",DRSC29918,0.232,-0.145,-0.353,inactive
Mms19,DRSC12188,0.599,0.235,-0.62,inactive
Mms19,DRSC27172,0.124,1.02,0.316,inactive
Nplp1 (Neuropeptide-like precursor 1),DRSC04370,0.751,-0.138,0.383,inactive
CG13252,DRSC11700,0.276,-0.516,0.39,inactive
CG13252,DRSC27577,0.835,-0.194,0.587,inactive
CG1428,DRSC03708,-0.0936,-5.96,0.0355,inactive
inaF-A,DRSC19660,0.573,-0.219,0.585,inactive
CG5376,DRSC15782,0.816,0.936,0.161,inactive
CG5376,DRSC29433,-0.401,-3.6,0.459,inactive
rdgA (retinal degeneration A),DRSC17863,-4.45,-0.586,-0.544,inactive
rdgA (retinal degeneration A),DRSC18036,-3.26,0.365,0.219,inactive
rdgA (retinal degeneration A),DRSC18827,1.31,0.402,-0.0565,inactive
rdgA (retinal degeneration A),DRSC25192,-1.58,-0.29,-0.43,inactive
rdgA (retinal degeneration A),DRSC27192,0.0164,0.41,0.141,inactive
rdgA (retinal degeneration A),DRSC39133,0.924,0.135,0.816,inactive
rdgA (retinal degeneration A),DRSC40678,-1.04,0.536,-0.261,inactive
CG33463,DRSC22915,0.00607,0.492,0.307,inactive
CG33463,DRSC29923,0.644,-0.437,0.89,inactive
CG16756,DRSC18115,0.696,-0.85,1.08,inactive
CG7148,DRSC11802,-0.28,-0.537,0.193,inactive
Hgsnat (Heparan-alpha-glucosaminide N-acetyltransferase),DRSC18405,-1.42,0.678,-2.1,inactive
Hgsnat (Heparan-alpha-glucosaminide N-acetyltransferase),DRSC24716,1.14,-0.00388,0.892,inactive

No new results follow: entries from further up.
predicted target,dsRNA,"Wolbachia per cell robust z, rep 1","Wolbachia per cell robust z, rep 2","Wolbachia per cell robust z, rep 3",activity call
CG13252,DRSC11700,0.276,-0.516,0.39,inactive
CG13252,DRSC27577,0.835,-0.194,0.587,inactive
CG1428,DRSC03708,-0.0936,-5.96,0.0355,inactive
inaF-A,DRSC19660,0.573,-0.219,0.585,inactive
CG5376,DRSC15782,0.816,0.936,0.161,inactive
CG5376,DRSC29433,-0.401,-3.6,0.459,inactive
rdgA (retinal degeneration A),DRSC17863,-4.45,-0.586,-0.544,inactive
rdgA (retinal degeneration A),DRSC18036,-3.26,0.365,0.219,inactive

Additional results follow:
predicted target,dsRNA,"Wolbachia per cell robust z, rep 1","Wolbachia per cell robust z, rep 2","Wolbachia per cell robust z, rep 3",activity call
chas (chascon),DRSC19508,0.426,0.163,0.608,inactive
chas (chascon),DRSC19509,-0.925,-2.59,-5.38,active
chas (chascon),DRSC29130,-2.49,-0.871,-1.47,inactive
Lcp1 (Larval cuticle protein 1),DRSC07455,-1.18,0.405,0.701,inactive
Lcp1 (Larval cuticle protein 1),DRSC41547,-0.234,-0.42,-0.686,inactive
PDZ-GEF (PDZ domain-containing guanine nucleotide exchange factor),DRSC03231,0.709,0.665,0.765,inactive
CG10051,DRSC05959,0.583,0.417,0.572,inactive
CG18179,DRSC10303,-2.48,-1.13,-0.817,inactive
CG18179,DRSC25528,-0.399,-0.584,1.52,inactive
CG18179,DRSC41288,0.373,-1.34,-1.25,inactive
kat-60L1 (katanin p60-like 1),DRSC12184,-0.81,0.141,0.276,inactive
kat-60L1 (katanin p60-like 1),DRSC25414,1.17,0.0549,-0.928,inactive
dyl (dusky-like),DRSC08466,-0.892,-0.442,-4.33,inactive
dyl (dusky-like),DRSC08467,-1.11,-0.657,-0.827,inactive
dyl (dusky-like),DRSC24188,0.913,0.433,0.171,inactive
RfC38 (Replication factor C 38kD subunit),DRSC29807,-1.02,-0.0782,-1.17,inactive
CG7378,DRSC20041,1.55,0.531,0.404,inactive
parvin,DRSC19468,-1.5,-1.66,-3.84,active
parvin,DRSC28956,0.194,-0.344,1.17,inactive
CG18130,DRSC19790,-4.54,-3.49,-0.583,inactive
CG18130,DRSC24767,0.918,-0.0109,0.0648,inactive
Cht7 (Chitinase 7),DRSC08538,0.938,0.576,0.822,inactive
Cht7 (Chitinase 7),DRSC21783,-1.38,-0.947,0.707,inactive
